Molecular target: Nicotinic acetylcholine receptor alpha1/beta1/epsilon/delta (Mus musculus, UniProt P04756+P09690+P02716+P20782)
Assay: Antagonist activity at mouse alpha1beta1deltaepsilon nACh receptor expressed in Xenopus oocyte assessed as inhibition of acetylcholine-induced response at -70 mV holding potential by voltage-clamp based electrophysiological assay

Amino acid sequences for entries named in this document (tags omitted). Residues count along the entry.
UniProt P04756, 21-457 limits assumed: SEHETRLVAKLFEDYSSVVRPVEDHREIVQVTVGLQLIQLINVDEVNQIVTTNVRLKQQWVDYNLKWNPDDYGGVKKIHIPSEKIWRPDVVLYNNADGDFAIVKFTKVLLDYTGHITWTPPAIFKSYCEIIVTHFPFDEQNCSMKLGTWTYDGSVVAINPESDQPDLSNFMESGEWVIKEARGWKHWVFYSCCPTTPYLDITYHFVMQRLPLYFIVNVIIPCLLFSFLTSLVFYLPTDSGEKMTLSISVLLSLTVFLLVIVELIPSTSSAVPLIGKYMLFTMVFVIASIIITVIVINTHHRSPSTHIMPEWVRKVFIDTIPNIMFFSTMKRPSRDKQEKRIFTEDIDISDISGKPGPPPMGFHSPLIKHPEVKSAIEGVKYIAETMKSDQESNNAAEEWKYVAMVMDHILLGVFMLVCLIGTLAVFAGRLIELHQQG
UniProt P09690, 24-501 limits assumed: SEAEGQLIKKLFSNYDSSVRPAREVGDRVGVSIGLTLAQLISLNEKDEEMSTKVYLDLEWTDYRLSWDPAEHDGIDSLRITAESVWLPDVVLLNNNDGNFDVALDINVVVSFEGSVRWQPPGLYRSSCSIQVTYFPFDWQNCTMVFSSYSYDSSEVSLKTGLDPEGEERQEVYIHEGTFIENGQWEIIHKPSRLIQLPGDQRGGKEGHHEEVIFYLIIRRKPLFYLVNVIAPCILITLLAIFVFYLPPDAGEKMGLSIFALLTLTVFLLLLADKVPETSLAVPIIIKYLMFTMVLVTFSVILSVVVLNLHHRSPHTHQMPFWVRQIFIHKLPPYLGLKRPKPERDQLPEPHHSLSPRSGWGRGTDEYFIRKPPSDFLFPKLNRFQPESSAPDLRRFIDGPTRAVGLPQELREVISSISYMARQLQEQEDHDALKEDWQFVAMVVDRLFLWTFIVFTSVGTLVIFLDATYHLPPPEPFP
UniProt P02716, 25-520 limits assumed: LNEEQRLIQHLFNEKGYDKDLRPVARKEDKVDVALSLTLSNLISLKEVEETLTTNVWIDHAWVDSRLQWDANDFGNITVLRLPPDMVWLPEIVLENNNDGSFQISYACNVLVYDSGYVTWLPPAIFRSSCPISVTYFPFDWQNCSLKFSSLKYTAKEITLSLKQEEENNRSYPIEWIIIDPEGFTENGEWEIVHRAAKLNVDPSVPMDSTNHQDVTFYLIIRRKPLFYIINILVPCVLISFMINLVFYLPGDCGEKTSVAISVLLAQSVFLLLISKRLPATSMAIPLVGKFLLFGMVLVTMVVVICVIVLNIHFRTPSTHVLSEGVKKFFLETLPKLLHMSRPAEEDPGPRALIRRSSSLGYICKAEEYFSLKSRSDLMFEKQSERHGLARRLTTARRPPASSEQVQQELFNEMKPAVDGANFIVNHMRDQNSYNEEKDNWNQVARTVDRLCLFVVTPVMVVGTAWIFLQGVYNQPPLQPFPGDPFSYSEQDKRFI
UniProt P20782, 21-493 limits assumed: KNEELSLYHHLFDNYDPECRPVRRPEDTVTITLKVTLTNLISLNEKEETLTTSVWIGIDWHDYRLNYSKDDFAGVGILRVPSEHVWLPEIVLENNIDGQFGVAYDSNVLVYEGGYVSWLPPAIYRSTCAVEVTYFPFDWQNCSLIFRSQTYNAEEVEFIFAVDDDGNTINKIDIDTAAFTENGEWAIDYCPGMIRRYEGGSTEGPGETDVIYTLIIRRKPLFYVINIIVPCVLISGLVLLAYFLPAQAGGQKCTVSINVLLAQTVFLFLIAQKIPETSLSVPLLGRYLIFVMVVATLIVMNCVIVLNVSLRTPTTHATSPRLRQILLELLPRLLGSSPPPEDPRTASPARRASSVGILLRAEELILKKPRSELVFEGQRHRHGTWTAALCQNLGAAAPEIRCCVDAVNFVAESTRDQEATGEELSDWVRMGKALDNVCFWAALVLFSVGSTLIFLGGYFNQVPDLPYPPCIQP

Going from `CC[C@H](C)[C@@H]1NC(=O)[C@H](CCCNC(=N)N)NC(=O)[C@H](CCCNC(=N)N)NC(=O)[C@@H]2CSSC[C@H](NC(=O)[C@H](Cc3ccc(O)cc3)NC(=O)[C@H](CCCNC(=N)N)NC(=O)CNC(=O)[C@H](CO)NC(=O)[C@H](CO)NC(=O)[C@H](CCCNC(=N)N)NC(=O)[C@@H](NC(=O)[C@H](C)N)CSSC[C@@H](C(=O)N[C@H](C(=O)O)C(C)C)NC(=O)[C@H](C)NC(=O)[C@H](CC(=O)O)NC(=O)[C@H]([C@@H](C)O)NC1=O)C(=O)N[C@@H](CCCNC(=N)N)C(=O)N[C@@H](CO)C(=O)N1CCC[C@H]1C(=O)N[C@@H](Cc1ccc(O)cc1)C(=O)N[C@@H](CC(=O)O)C(=O)N[C@@H](CCCNC(=N)N)C(=O)N[C@@H](CCCNC(=N)N)C(=O)N[C@@H](CCCNC(=N)N)C(=O)N[C@@H](CCCNC(=N)N)C(=O)N[C@@H](Cc1ccc(O)cc1)C(=O)N2` to `CC[C@H](C)[C@@H]1NC(=O)[C@H](CCCNC(=N)N)NC(=O)[C@H](CCCNC(=N)N)NC(=O)[C@@H]2CSSC[C@H](NC(=O)[C@H](Cc3ccc(O)cc3)NC(=O)[C@H](CCCNC(=N)N)NC(=O)CNC(=O)[C@H](CO)NC(=O)[C@H](CO)NC(=O)[C@H](C)NC(=O)[C@@H](NC(=O)[C@@H](N)[C@@H](C)O)CSSC[C@@H](C(=O)N[C@H](C(=O)O)C(C)C)NC(=O)[C@H](C)NC(=O)[C@H](CC(=O)O)NC(=O)[C@H]([C@@H](C)O)NC1=O)C(=O)N[C@@H](CCCNC(=N)N)C(=O)N[C@@H](CO)C(=O)N1CCC[C@H]1C(=O)N[C@@H](Cc1ccc(O)cc1)C(=O)N[C@@H](CC(=O)O)C(=O)N[C@@H](CCCNC(=N)N)C(=O)N[C@@H](CCCNC(=N)N)C(=O)N[C@@H](CCCNC(=N)N)C(=O)N[C@@H](CCCNC(=N)N)C(=O)N[C@@H](Cc1ccc(O)cc1)C(=O)N2`, the IC50 rises from 1330 nM to 2180 nM (1.6-fold).

Going from `CC[C@H](C)[C@@H]1NC(=O)[C@H](CCCNC(=N)N)NC(=O)[C@H](CCCNC(=N)N)NC(=O)[C@@H](NC(=O)[C@H](Cc2ccc(O)cc2)NC(=O)[C@H](CCCNC(=N)N)NC(=O)[C@H](CCCNC(=N)N)NC(=O)[C@H](CCCNC(=N)N)NC(=O)[C@H](CCCNC(=N)N)NC(=O)[C@H](CC(=O)O)NC(=O)[C@H](Cc2ccc(O)cc2)NC(=O)[C@@H]2CCCN2C(=O)[C@H](CO)NC(=O)[C@H](CCCNC(=N)N)NC(=O)[C@@H]2CSSC[C@H](NC(=O)[C@@H](N)[C@@H](C)O)C(=O)N[C@@H](CCCNC(=N)N)C(=O)N[C@@H](CO)C(=O)N[C@@H](CO)C(=O)NCC(=O)N[C@@H](CCCNC(=N)N)C(=O)N[C@@H](C)C(=O)N2)CSSC[C@@H](C(=O)N[C@H](C(=O)O)C(C)C)NC(=O)[C@H](C)NC(=O)[C@H](CC(=O)O)NC(=O)[C@H]([C@@H](C)O)NC1=O` to `CC[C@H](C)[C@@H]1NC(=O)[C@H](CCCNC(=N)N)NC(=O)[C@H](CCCNC(=N)N)NC(=O)[C@@H](NC(=O)[C@H](Cc2ccc(O)cc2)NC(=O)[C@H](CCCNC(=N)N)NC(=O)[C@H](CCCNC(=N)N)NC(=O)[C@H](CCCNC(=N)N)NC(=O)[C@H](CCCNC(=N)N)NC(=O)[C@H](CC(=O)O)NC(=O)[C@H](Cc2ccc(O)cc2)NC(=O)[C@@H]2CCCN2C(=O)[C@H](CO)NC(=O)[C@H](CCCNC(=N)N)NC(=O)[C@@H]2CSSC[C@H](NC(=O)[C@@H](N)[C@@H](C)O)C(=O)N[C@@H](CCCNC(=N)N)C(=O)N[C@@H](CO)C(=O)N[C@@H](CO)C(=O)NCC(=O)N[C@@H](CCCNC(=N)N)C(=O)N[C@@H](Cc3ccc(O)cc3)C(=O)N2)CSSC[C@@H](C(=O)N[C@H](C(=O)O)C(C)C)NC(=O)[C@H](C)NC(=O)[C@@H](C)NC(=O)[C@H]([C@@H](C)O)NC1=O`, the IC50 rises from 1920 nM to 3320 nM (1.7-fold). The first is the more potent here.

For `CC[C@H](C)[C@@H]1NC(=O)[C@H](CCCNC(=N)N)NC(=O)[C@H](C)NC(=O)[C@@H](NC(=O)[C@H](Cc2ccc(O)cc2)NC(=O)[C@H](CCCNC(=N)N)NC(=O)[C@H](CCCNC(=N)N)NC(=O)[C@H](CCCNC(=N)N)NC(=O)[C@H](CCCNC(=N)N)NC(=O)[C@H](CC(=O)O)NC(=O)[C@H](Cc2ccc(O)cc2)NC(=O)[C@@H]2CCCN2C(=O)[C@H](CO)NC(=O)[C@H](CCCNC(=N)N)NC(=O)[C@@H]2CSSC[C@H](NC(=O)[C@@H](N)[C@@H](C)O)C(=O)N[C@@H](CCCNC(=N)N)C(=O)N[C@@H](CO)C(=O)N[C@@H](CO)C(=O)NCC(=O)N[C@@H](CCCNC(=N)N)C(=O)N[C@@H](Cc3ccc(O)cc3)C(=O)N2)CSSC[C@@H](C(=O)N[C@H](C(=O)O)C(C)C)NC(=O)[C@H](C)NC(=O)[C@H](CC(=O)O)NC(=O)[C@H]([C@@H](C)O)NC1=O`, the IC50 was 2150 nM.
